Measurements: patent US9078928B2, “Conjugated molecules comprising a peptide derived from the CD4 receptor coupled to a polyanionic polypeptide for the treatment of AIDS” (Institut Pasteur, priority 2011, dated 2015)

Experiments:
gp120 MN (X4) [1] = biological target: T1, gp120 MN (X4) (Human immunodeficiency virus type 1 group M subtype B, UniProt P05877); assay type: binding, HIV; settings: sCD4-coated surface (FIG. 5E)
T1 construct: Two different gp120 were used, originating from a type X4 isolate (gp120 MN)
Experimental: (§1) Two different gp120 were used, originating from a type X4 isolate (gp120 MN) and a type R5 isolate (gp120 YU2). The capacity of different molecules to inhibit gp120 interactions with various receptors or co-receptors is measured by surface plasmonic resonance (Biacore).
In another set of experiments, sCD4 is coated on the surface, and gp120 alone (grey line) or pre-incubated with the compounds to be tested are injected onto these surfaces (FIGS. 5E and 5H). The interaction signal between gp120 and sCD4 is measured as a function of time.

gp120 MN (X4) [2] = biological target: T1, gp120 MN (X4); assay type: binding, HIV; settings: for mAb17b binding to gp120 MN(X4)-coated surface pretreated with the compound: 100 nM compound, mAb17b 15 μg/ml (FIG. 5A-C); for binding of gp120 MN in complex with the compound to mAb17b-coated surface: mAb17b-coated surface (FIG. 5D)
Experimental: as §1
To do this, proteins (in this case gp120 envelop proteins) can be immobilized on the surface of a biosensor (Sensorchip CM 4 Biacore) in accordance with the described procedure (Vives et al. J. Biol. Chem. 279, 54327-54333, 2005).
The interaction signal between gp120 and mAb17b is measured as a function of time.

LAI HIV-1 = experiment: Antiviral assay against LAI HIV-1, compounds preincubated with cells or with viruses (Example 4, Table 7); assay type: cell-based; settings: mean ± s.d. of triplicate; for ED70 LAI HIV-1, Pre-treated cells / ED90 LAI HIV-1, Pre-treated cells: compounds preincubated with the cells; for ED70 LAI HIV-1, Pre-treated viruses / ED90 LAI HIV-1, Pre-treated viruses: compounds preincubated with the viruses
Experimental: Phytohemagglutinin (PHA)-P-activated PBMCs were infected either with the reference lymphotropic HIV-1/LAI strain (Barre-Sinoussi, et al., 1983) or with the reference macrophage-tropic HIV-1/Ba-L strain (Gartner, et al., 1986). These viruses were amplified in vitro with PHA-P-activated blood mononuclear cells. Viral stocks (including clinical isolates) were titrated using PHA-P-activated PBMCs, and 50% tissue culture infectious doses (TCID50) were calculated using Kärber's formula (Kärber, 1931). Viruses (125 TCID50) were incubated for 30 min with five concentrations (1:5 dilutions between 500 nM and 320 pM) of each of the molecules to be tested and added to 150 000 PBMCs (m.o.i.˜0.001). Cell supernatants were collected at day 7 post-infection and stored at −20° C. In some cases, the compounds were added to the cells prior to viral challenge. Viral replication was measured by quantifying reverse transcriptase (RT) activity in the cell culture supernatants using the Lenti RT Activity Kit (Cavisi) and AZT was used as reference anti-HIV-1 molecule. In parallel, cytotoxicity was evaluated on day 7 in uninfected PHA-P-activated PBMC using a colorimetric methyl-tetrazolium salt (MTS/PMS) assay (Promega). Experiments were performed in triplicate and 50, 70 and 90% effective doses (ED) were calculated using SoftMaxPro software.
Indeed, addition of the molecule either to the cells, prior to the viral challenge or to the virus prior to the cell infection return, identical results (cf. table 7).

R5-tropic HIV-1/Ba-L = experiment: Antiviral assay in PHA-P-activated PBMC, RT activity in supernatant at day 7 (Example 3); assay type: cell-based; settings: mean of triplicate; for ED70 VIH-1/Ba-L(R5) Average: effective dose to inhibit 70% of HIV-1 replication; for ED90 VIH-1/Ba-L(R5) Average: effective dose to inhibit 90% of HIV-1 replication
Experimental: Briefly, the X4-tropic HIV-1-LAI (Barre-Sinoussi, Science 220, 868-71, 1983) or the R5-tropic HIV-1/Ba-L (Gartner et al, Science 233, 215-9, 1986) strains were amplified and titrated in vitro on Phytohemaglutinin-P (PHA-P)-activated peripheral blood mononuclear cells (PBMC). Tissue culture infectious doses were calculated using Kärber's formula (Kärber, Arch. Exp. Path. Pharmak. 162, 480-483, 1931). […] Drugs were maintained throughout the culture, and cell supernatants were collected at day 7 post-infection and stored at −20° C. Azidothymidine (AZT) was used in these experiments as an internal control. Viral replication was measured by quantifying reverse transcriptase (RT) activity in cell culture supernatants using the RetroSys HIV RT kit (Innovagen). In parallel, cytotoxicity of the samples was evaluated in uninfected PHA-P-activated PBMC by a methyltetrazolium salt (MTT) assay on day 7. Experiments were performed in triplicate and 50, 70 and 90% effective doses and cytotoxic doses were calculated using SoftMaxPro software.
Molecules and viruses were maintained throughout the culture, and cell supernatants were collected at day 7 post-infection from which reverse transcriptase activity was quantified. Experiments were performed in triplicate and 50, 70 and 90% effective doses (ED), in nM (±S.D.) were calculated using SoftMaxPro software.

X4-tropic HIV-1-LAI = experiment: as above; assay type: cell-based; settings: mean of triplicate; for ED70 VIH-1-LAI(X4) Average: effective dose to inhibit 70% of HIV-1 replication; for ED90 VIH-1-LAI(X4) Average: effective dose to inhibit 90% of HIV-1 replication
Experimental: The antiviral experiment have been performed as described in WO/2009/098147 and Nature Chemical Biology, 2009, 5(10), 743-748.
Briefly, the X4-tropic HIV-1-LAI (Barre-Sinoussi, Science 220, 868-71, 1983) or the R5-tropic HIV-1/Ba-L (Gartner et al, Science 233, 215-9, 1986) strains were amplified and titrated in vitro on Phytohemaglutinin-P (PHA-P)-activated peripheral blood mononuclear cells (PBMC). Tissue culture infectious doses were calculated using Kärber's formula (Kärber, Arch. Exp. Path. Pharmak. 162, 480-483, 1931). For the antiviral assay, PHA-P-activated PBMC were pre-treated for 30 minutes with six concentrations of each drug (1:5 dilutions between 0.5 μM and 160 pM) and infected with one hundred 50% tissue culture infectious doses (TCID50) of either the X4-tropic LAI or R5-tropic Ba-L strain. Drugs were maintained throughout the culture, and cell supernatants were collected at day 7 post-infection and stored at −20° C. Azidothymidine (AZT) was used in these experiments as an internal control. Viral replication was measured by quantifying reverse transcriptase (RT) activity in cell culture supernatants using the RetroSys HIV RT kit (Innovagen). In parallel, cytotoxicity of the samples was evaluated in uninfected PHA-P-activated PBMC by a methyltetrazolium salt (MTT) assay on day 7. Experiments were performed in triplicate and 50, 70 and 90% effective doses and cytotoxic doses were calculated using SoftMaxPro software.
PHA-P-activated PBMC were treated with each of the drug under investigation (1:5 dilutions between 0.5 μM and […]) and infected with 100 TCID50 of either HIV-1-LAI (X4 tropic) or /Ba-L (R5 tropic) strain. Molecules and viruses were maintained throughout the culture, and cell supernatants were collected at day 7 post-infection from which reverse transcriptase activity was quantified. Experiments were performed in triplicate and 50, 70 and 90% effective doses (ED), in nM (±S.D.) were calculated using SoftMaxPro software.

Row | Structure (SMILES) | binding of gp120 MN in complex with the compound to sCD4-coated surface (gp120 MN (X4) [1]) | mAb17b binding to gp120 MN(X4)-coated surface pretreated with the compound (gp120 MN (X4) [2]) | binding of gp120 MN in complex with the compound to mAb17b-coated surface (gp120 MN (X4) [2]) | ED70 LAI HIV-1, Pre-treated cells (LAI HIV-1) [nM] | ED90 LAI HIV-1, Pre-treated cells (LAI HIV-1) [nM] | ED70 LAI HIV-1, Pre-treated viruses (LAI HIV-1) [nM] | ED90 LAI HIV-1, Pre-treated viruses (LAI HIV-1) [nM] | ED70 VIH-1/Ba-L(R5) Average (R5-tropic HIV-1/Ba-L) [nM] | ED90 VIH-1/Ba-L(R5) Average (R5-tropic HIV-1/Ba-L) [nM] | ED70 VIH-1-LAI(X4) Average (X4-tropic HIV-1-LAI) [nM] | ED90 VIH-1-LAI(X4) Average (X4-tropic HIV-1-LAI) [nM]
1 | CC(C)C[C@@H]1NC(=O)CNC(=O)[C@H](CC(C)C)NC(=O)[C@H](CO)NC(=O)[C@H](CO)NC(=O)[C@@H]2CSSC[C@@H](C(=O)N[C@H](C(N)=O)C(C)C)NC(=O)[C@H](C)NC(=O)[C@@H]3CSSC[C@H](NC(=O)[C@H](CCCCN)NC(=O)[C@H](Cc4c[nH]cn4)NC(=O)[C@H](CC(C)C)NC(=O)[C@H](CC(N)=O)NC(=O)CCSSC[C@H](NC(=O)[C@H](CCCNC(=N)N)NC(=O)CNC(=O)[C@H](CC(C)C)NC1=O)C(=O)N[C@@H](C)C(=O)NCC(=O)N[C@@H](CO)C(=O)N[C@@H](Cc1ccc(-c4ccccc4)cc1)C(=O)N3)C(=O)N[C@@H](CCC(N)=O)C(=O)N[C@@H](CC(C)C)C(=O)N[C@@H](CCCNC(=N)N)C(=O)N2 [mCD4, reference compound] | partially inhibited | binds and unmasks the CD4i epitope | binding occurs | >500 | >500 | 474 ± 27 | >500 | >500 | >500 | 242 | 317
2 | CC(C)C[C@@H]1NC(=O)CNC(=O)[C@H](CC(C)C)NC(=O)[C@H](CO)NC(=O)[C@H](CO)NC(=O)[C@@H]2CSSC[C@@H](C(=O)N[C@H](C(N)=O)C(C)C)NC(=O)[C@H](C)NC(=O)[C@@H]3CSSC[C@H](NC(=O)[C@H](CCCCNC(=O)CCOCCOCCNC(=O)CCN4C(=O)CC(SCCC(=O)NCCCC(=O)N[C@@H](CO)C(=O)N[C@@H](Cc5ccc(OS(=O)(=O)O)cc5)C(=O)N[C@@H](CC(=O)O)C(=O)N[C@@H](Cc5ccc(OS(=O)(=O)O)cc5)C(=O)N[C@@H](CO)C(=O)N[C@@H](Cc5ccc(OS(=O)(=O)O)cc5)C(=O)N[C@@H](CC(=O)O)C(=O)N[C@@H](Cc5ccc(OS(=O)(=O)O)cc5)C(=O)N[C@@H](CO)C(=O)N[C@@H](Cc5ccc(OS(=O)(=O)O)cc5)C(=O)N[C@@H](CC(=O)O)C(=O)N[C@@H](Cc5ccc(OS(=O)(=O)O)cc5)C(=O)N[C@@H](CO)C(=O)O)C4=O)NC(=O)[C@H](Cc4c[nH]cn4)NC(=O)[C@H](CC(C)C)NC(=O)[C@H](CC(N)=O)NC(=O)CCSSC[C@H](NC(=O)[C@H](CCCNC(=N)N)NC(=O)CNC(=O)[C@H](CC(C)C)NC1=O)C(=O)N[C@@H](C)C(=O)NCC(=O)N[C@@H](CO)C(=O)N[C@@H](Cc1ccc(-c4ccccc4)cc1)C(=O)N3)C(=O)N[C@@H](CCC(N)=O)C(=O)N[C@@H](CC(C)C)C(=O)N[C@@H](CCCNC(=N)N)C(=O)N2 (stereo partly shown) [mCD4-P3YSO3] | fully inhibited | fully inhibits | fully inhibited | 0.6 ± 0.2 | 1 ± 0.2 | 0.7 ± 0.3 | 0.9 ± 0.2 | 3.1 | 20 | 0.6 | 1.1
